For 45 molecules, IC50 and EC50 results are on record in patent US10208045B2, “Aza-pyridone compounds and uses thereof” (Alios BioPharma, Inc., priority 2015, dated 2019).

SMILES strings stand for the structures.

The target in assay [1] is Full length EN PA (influenza endonuclease) (Influenza A virus, UniProt P15659). As to the kind of experiment: EN PA FRET inhibition assay. It counts as biochemical. The conditions noted are these: read-out: Potency (IC50 class), 50 Nm FRET probe, mean of a minimum of two independent experiments.
The test system of assay [2] is Influenza strain A549_A/WSN/33 (H1N1). As to the kind of experiment: Influenza antiviral assay (neuraminidase fluorescence readout in A549 or MDCK cells). It counts as cell-based, Influenza A virus. The conditions noted are these: read-out: % Inhibition (EC50 class).

The term IC50 denotes the point on the concentration scale where inhibition reaches its midpoint. A word on the EC50: it is the midpoint of the concentration-response curve.

As to `CCC(=O)Oc1c2n(ncc1=O)[C@@H](C1c3cccc(F)c3CCc3c(F)cccc31)CN(C(C)C)C2=O`, the IC50 in assay [1] is less than 0.25 µM. In addition, in assay [2], the EC50 is less than 20 µM.
Regarding `CC(C)[C@@H](N)C(=O)OCOc1c2n(ncc1=O)[C@@H](C1c3cccc(F)c3CCc3c(F)cccc31)CN(C(C)C)C2=O`, in assay [1], the IC50 is less than 0.25 µM. Further, the EC50 in assay [2] is less than 20 µM.
Consider `CC(C)C[C@@H](N)C(=O)OCOc1c2n(ncc1=O)[C@@H](C1c3cccc(F)c3CCc3c(F)cccc31)CN(C(C)C)C2=O`, for which the IC50 in assay [1] was less than 0.25 µM. For the same molecule, the EC50 in assay [2] is less than 20 µM.
Consider `CCCN1C[C@H](C2c3cccc(F)c3CCc3c(F)cccc32)n2ncc(=O)c(OCOC(=O)[C@H](N)C(C)C)c2C1=O`, for which the IC50 in assay [1] is less than 0.25 µM. The EC50 in assay [2] is less than 20 µM.
In the case of `CCn1cc([C@@H](c2ccccc2)[C@H]2CN(C)C(=O)c3c(O)c(=O)cnn32)c2ccccc21` (relative stereo), in assay [1], the half-maximal inhibitory concentration (IC50) fell in the range of 0.25 to 1 µM. The EC50 in assay [2] was less than 20 µM.
Consider `CCCN1C[C@H](C2c3cccc(F)c3CCc3c(F)cccc32)n2ncc(=O)c(OCOC(=O)C(C)(C)N)c2C1=O`, for which the IC50 in assay [1] was less than 0.25 µM. Further, in assay [2], the EC50 is less than 20 µM.
With `CN1C[C@H](C(c2cccc(Cl)c2)c2cccc(Cl)c2)n2ncc(=O)c(O)c2C1=O`, the IC50 in assay [1] was less than 0.25 µM. Also, the EC50 in assay [2] was less than 20 µM.
As to `CC(C)N1C[C@H](C2c3ccccc3CCc3ccccc32)n2ncc(=O)c(OCOC(=O)[C@H](N)Cc3ccccc3)c2C1=O`, the IC50 in assay [1] is less than 0.25 µM.
In the case of `CCCN1C[C@H](C2c3cccc(F)c3CCc3c(F)cccc32)n2ncc(=O)c(O[C@H](C)OC(=O)OCC)c2C1=O` (relative stereo), the IC50 in assay [1] is greater than 1 µM. In assay [2], the EC50 was less than 20 µM.
With `CCn1cc([C@H](c2ccccc2)[C@H]2CN(C)C(=O)c3c(O)c(=O)cnn32)c2ccccc21` (relative stereo), in assay [1], the IC50 fell in the range of 0.25 to 1 µM. Further, the EC50 in assay [2] is less than 20 µM.
For the molecule `CCCN1C[C@H](C2c3cccc(F)c3CCc3c(F)cccc32)n2ncc(=O)c(OCOC(=O)[C@H](N)Cc3ccccc3)c2C1=O`, the IC50 in assay [1] is less than 0.25 µM. For the same molecule, the EC50 in assay [2] is less than 20 µM.
Regarding `CCOC(=O)O[C@H](C)Oc1c2n(ncc1=O)[C@@H](C1c3ccccc3CCc3ccccc31)CN(C(C)C)C2=O`, in assay [1], the IC50 is less than 0.25 µM.
For `CC(F)(F)CN1C[C@H](C2c3ccccc3CCc3ccccc32)n2ncc(=O)c(O)c2C1=O`, in assay [1], the IC50 is less than 0.25 µM. For the same molecule, in assay [2], the EC50 is less than 20 µM.
As for `CC(C)N1C[C@H](C2c3cccc(Cl)c3CCc3c(Cl)cccc32)n2ncc(=O)c(O)c2C1=O`, the IC50 in assay [1] was less than 0.25 µM. In assay [2], the EC50 is less than 20 µM.
Turning to `O=C1c2c(O)c(=O)cnn2[C@@H](C(c2ccccc2)c2ccccc2)CN1CC=C(F)F`, the IC50 in assay [1] was less than 0.25 µM. In addition, the EC50 in assay [2] is less than 20 µM.
As to `O=C1c2c(O)c(=O)cnn2[C@@H](C(c2ccccc2)c2ccccc2)CN1CC(F)(F)F`, the IC50 in assay [1] was less than 0.25 µM. The EC50 in assay [2] was less than 20 µM.
For `CCCN1C[C@H](C2c3cccc(F)c3CCc3c(F)cccc32)n2ncc(=O)c(O[C@@H](C)OC(=O)OCC)c2C1=O`, in assay [1], the IC50 is less than 0.25 µM. Further, the EC50 in assay [2] is less than 20 µM.
Take `CCOC(=O)OC(C)Oc1c2n(ncc1=O)[C@@H](C1c3cccc(F)c3CCc3c(F)cccc31)CN(C(C)C)C2=O` (stereo partly drawn): the IC50 in assay [1] is greater than 1 µM. The EC50 in assay [2] was less than 20 µM.
As to `CN1C[C@H]([C@H](c2ccccc2)n2cccn2)n2ncc(=O)c(O)c2C1=O` (relative stereo), the IC50 in assay [1] is less than 0.25 µM. The EC50 in assay [2] is less than 20 µM.
The matching figures for `CN1C[C@H]([C@H](c2ccccc2)c2cn(C)c3cnccc23)n2ncc(=O)c(O)c2C1=O` (relative stereo): less than 0.25 µM and less than 20 µM.
Turning to `CCCN1C[C@H](C(c2cccc(Cl)c2)c2cccc(Cl)c2)n2ncc(=O)c(OC(=O)C(C)C)c2C1=O`, in assay [1], the IC50 was less than 0.25 µM. For the same molecule, the EC50 in assay [2] was less than 20 µM.
As to `CC(C)C[C@H](N)C(=O)OCOc1c2n(ncc1=O)[C@@H](C1c3cccc(F)c3CCc3c(F)cccc31)CN(C(C)C)C2=O`, the IC50 in assay [1] is less than 0.25 µM. Further, the EC50 in assay [2] is less than 20 µM.
`CC(C)[C@@H](N)C(=O)OCOc1c2n(ncc1=O)[C@@H](C1c3ccccc3CCc3ccccc31)CN(C(C)C)C2=O`: the IC50 in assay [1] was less than 0.25 µM. The EC50 in assay [2] is less than 20 µM.
For the molecule `CN1C[C@H]([C@@H](c2ccccc2)n2cc(C#CC3COC3)c(C#CC3COC3)n2)n2ncc(=O)c(O)c2C1=O` (relative stereo), the IC50 in assay [1] was greater than 1 µM.
`O=C1c2c(O)c(=O)cnn2[C@@H](C2c3ccccc3CCc3ccccc32)CN1CCC(F)(F)F`: in assay [1], the IC50 is less than 0.25 µM. For the same molecule, in assay [2], the EC50 was less than 20 µM.
On to `CC[C@H](C)[C@H](N)C(=O)OCOc1c2n(ncc1=O)[C@@H](C1c3cccc(F)c3CCc3c(F)cccc31)CN(C(C)C)C2=O`, for which the IC50 in assay [1] was less than 0.25 µM. The EC50 in assay [2] is less than 20 µM.
For `O=C1c2c(O)c(=O)cnn2[C@@H](C2c3cccc(F)c3CCc3c(F)cccc32)CN1CC(F)(F)F`, the IC50 in assay [1] was less than 0.25 µM. In assay [2], the EC50 was less than 20 µM.
For `CN1CC(C(c2ccccc2)n2ncc3ccccc32)n2ncc(=O)c(O)c2C1=O` (stereo not drawn), in that order: less than 0.25 µM and less than 20 µM.
Turning to `COC(=O)c1nn([C@H](c2ccccc2)[C@H]2CN(C)C(=O)c3c(O)c(=O)cnn32)c2ccccc12` (relative stereo), the IC50 in assay [1] was less than 0.25 µM. In assay [2], the EC50 is less than 20 µM.
For `CC(C)N1C[C@H](C2c3ccccc3CCc3ccccc32)n2ncc(=O)c(OCOC(=O)C(C)(C)N)c2C1=O`, the IC50 in assay [1] was less than 0.25 µM.
`O=C1c2c(O)c(=O)cnn2[C@@H](C2c3ccccc3CCc3ccccc32)CN1CC(F)(F)F`: the IC50 in assay [1] is less than 0.25 µM. In assay [2], the EC50 is less than 20 µM.
As for `CCCN1C[C@H](C2c3cccc(F)c3CCc3c(F)cccc32)n2ncc(=O)c(OCOC(=O)[C@@H](N)Cc3ccccc3)c2C1=O`, the IC50 in assay [1] was less than 0.25 µM. For the same molecule, the EC50 in assay [2] is less than 20 µM.
Regarding `O=C1c2c(O)c(=O)cnn2[C@@H](C2c3ccccc3CCc3ccccc32)CN1CC(F)F`, the IC50 in assay [1] was less than 0.25 µM. The EC50 in assay [2] was less than 20 µM.
On to `CN1C[C@H]([C@@H](c2ccccc2)n2nc(CO)c3ccccc32)n2ncc(=O)c(O)c2C1=O` (relative stereo), for which the IC50 in assay [1] was less than 0.25 µM. Besides, the EC50 in assay [2] is less than 20 µM.
Regarding `CCOC(=O)O[C@@H](C)Oc1c2n(ncc1=O)[C@@H](C1c3ccccc3CCc3ccccc31)CN(C(C)C)C2=O`, the IC50 in assay [1] is less than 0.25 µM.
Take `CCCN1C[C@H](C2c3cccc(F)c3CCc3c(F)cccc32)n2ncc(=O)c(OCOC(=O)[C@@H](N)C(C)C)c2C1=O`: the IC50 in assay [1] is less than 0.25 µM. For the same molecule, the EC50 in assay [2] is less than 20 µM.
As for `CC(C)N1C[C@H](C2c3ccccc3CCc3ccccc32)n2ncc(=O)c(OCOC(=O)[C@@H](N)Cc3ccccc3)c2C1=O`, the IC50 in assay [1] was less than 0.25 µM.
`CC(C)N1C[C@H](C2c3cccc(F)c3CCc3c(F)cccc32)n2ncc(=O)c(OCOC(=O)[C@@H](N)Cc3ccccc3)c2C1=O`: the IC50 in assay [1] is less than 0.25 µM. Moreover, the EC50 in assay [2] is less than 20 µM.
With `CN1C[C@H]([C@H](c2ccccc2)n2nc(CO)c3ccccc32)n2ncc(=O)c(O)c2C1=O` (relative stereo), the IC50 in assay [1] is less than 0.25 µM. Besides, in assay [2], the EC50 is less than 20 µM.
In the case of `O=C1c2c(O)c(=O)cnn2[C@@H](C2c3cccc(F)c3CCc3c(F)cccc32)CN1CCC(F)(F)F`, the IC50 in assay [1] is less than 0.25 µM. Also, in assay [2], the concentration giving a half-maximal response (EC50) is less than 20 µM.
For `COC(=O)c1nn([C@@H](c2ccccc2)[C@H]2CN(C)C(=O)c3c(O)c(=O)cnn32)c2ccccc12` (relative stereo), the IC50 in assay [1] was less than 0.25 µM. Besides, the EC50 in assay [2] is less than 20 µM.
`O=C1c2c(O)c(=O)cnn2[C@@H](C(c2ccccc2)c2ccccc2)CN1CCC(F)(F)F`: the IC50 in assay [1] was less than 0.25 µM. In addition, the EC50 in assay [2] is less than 20 µM.
In the case of `CC[C@@H](C)[C@@H](N)C(=O)OCOc1c2n(ncc1=O)[C@@H](C1c3cccc(F)c3CCc3c(F)cccc31)CN(C(C)C)C2=O`, the IC50 in assay [1] was less than 0.25 µM. The EC50 in assay [2] was less than 20 µM.
In the case of `CC(C)N1C[C@H](C2c3cccc(F)c3CCc3c(F)cccc32)n2ncc(=O)c(OCOC(=O)[C@H](N)Cc3ccccc3)c2C1=O`, in assay [1], the IC50 was less than 0.25 µM. Further, in assay [2], the concentration for a half-maximal effect (EC50) was less than 20 µM.
Consider `CC(C)N1C[C@H](C2c3cccc(F)c3CCc3c(F)cccc32)n2ncc(=O)c(OCOC(=O)C(C)(C)N)c2C1=O`, for which the IC50 in assay [1] is less than 0.25 µM. In assay [2], the EC50 was less than 20 µM.
